Consider 2 sequences from paper PMC7858072.

The data set concerns MBP-FhtR (apo) (Enterococcus faecalis OG1RF). The data set is described as follows: EMSA. To be noted: 2.5 pmol protein:0.25 pmol DNA, complete shift, only faster C1 complex; recombinant protein; residues 1-201; protein details: N-terminal MBP (pMAL-c4X); probe letters rebuilt from the primers and the genome. In general terms: In EMSA bound probe runs differently from free probe, usually more slowly.

The exact form of at least one protein or probe is not confirmed.

As to “CCAGCGAAAAACAGTGGATGACGATGTCAAAAAATTTATTCAATTTATGCTACATGGCGTTTTGAAAAGTCACAAATAAAAAATAGAGAAGCCCTGTTGAAAAACAGACTTCTCTATTTTTTTGTGAAATTCACACTTGTATACATAAATAATTATTGATTTATCGATTGATAAGTGATATAGTTTATTTCGAAAAGAAGAAAGAGGTGAACCATTCATGTTTTTAGGATTTAATGAAATGAAGTATTCAAAAGGACGGTACGTCCTTGTAGTCTTAGTAATGGTCTTGATTGCTTGGTTAATTTTTATTTTGTCAGGTTTAGCG (double strand) [PhrtBA P1*]”, the binding result is on record as “binds”.
In the case of “CCAGCGAAAAACAGTGGATGACGATGTCAAAAAATTTATTCAATTTATGCTACATGGCGTTTTGAAAAGTCACAAATAAAAAATAGAGAAGCCCTGTTGAAAAACAGACTTCTCTATTTTTTTGTGAAATTCACTTATCAATCGATAAATAATTATTGATATATCTTGTATAAGGTGATATAGTTTATTTCGAAAAGAAGAAAGAGGTGAACCATTCATGTTTTTAGGATTTAATGAAATGAAGTATTCAAAAGGACGGTACGTCCTTGTAGTCTTAGTAATGGTCTTGATTGCTTGGTTAATTTTTATTTTGTCAGGTTTAGCG (double strand) [PhrtBA P2*]” it was “binds”.
